From the supplement of paper PMC9931576
Human monoclonal antibodies against the spike receptor-binding domain (heavy:light variable regions). IC50 against pseudoviruses bearing the spike of naturally observed variants; lower = stronger; >10 µg/ml means not reached at the top dose. No active / inactive call. The stated detection limit is 0.0005 µg/ml; values near or below 0.001 µg/ml lie at the floor of the assay.

Key:
Test in all cases: pseudovirus neutralization IC50; higher = weaker neutralization
[1] = target: SARS-CoV-2 Omicron BA.1 spike pseudovirus
Procedure: (§1)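 Single-round VSV luciferase pseudovirus mixed with antibody dilutions for 1 h and put on Huh-7 cells for about a day; IC50 from the dose curve.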

[2] = target: SARS-CoV-2 Omicron BA.2 spike pseudovirus
Procedure: as §1

[3] = target: SARS-CoV-2 Omicron BA.2.75 spike pseudovirus
Procedure: as §1

[4] = target: SARS-CoV-2 Omicron BA.5 spike pseudovirus
Procedure: as §1

[5] = target: SARS-CoV-2 Omicron BQ.1.1 spike pseudovirus
Procedure: as §1

[6] = target: SARS-CoV-2 Omicron XBB spike pseudovirus
Procedure: as §1

[7] = target: SARS-CoV-2 early D614G spike pseudovirus
Procedure: as §1

B1: XGv-296 (protein)
chain 1: QVQLVQSGAEVKKPGASVKISCKASGYTFTDHYVHWVRQAPGQGLEWMAIVNPSDGSTSYAQKFQGRVTMTSDTSTTTIYMELSSLRSGDTAVYYCARAEGSSWLGWFDPWGQGTQVTVSS
chain 2: QSVLTQPPSASGTPGQRVTISCSGSSSNIGGHYVYWYQQFPGTAPKLLIYRSNQRPSGVPDRFSGSKSGTSASLAISGLRSEDEADYFCAAWDDGLRGSGWVFGGGTTLTV
pseudovirus neutralization IC50 [1]: 2.21 µg/mL
pseudovirus neutralization IC50 [2]: 0.0465 µg/mL
pseudovirus neutralization IC50 [3]: 0.152 µg/mL
pseudovirus neutralization IC50 [4]: 0.0251 µg/mL
pseudovirus neutralization IC50 [5]: 0.974 µg/mL
pseudovirus neutralization IC50 [6]: > 10 µg/mL
pseudovirus neutralization IC50 [7]: 0.0156 µg/mL

B2: XGv-346 (protein)
chain 1: EVQLLESGGGLVQPGGSLRLSCAASGFTFSYFAMSWVRQAPGKGLECVSIIHGDGGNTYYADSVKGRFTISRDNSKNTLYLQMNSLRAEDTAVYYCAKFVDTAFFDSWGQGALVIVSS
chain 2: SYVLTQPPSVSVAPGKTARVTCDGNNIGVKSVQWYQQKPGQAPVLVIYYDSDRPSGIPERFSGSNSGNTATLTISRVEAGDEADYYCQVWDSSSDYLVFGGGTKLTV
pseudovirus neutralization IC50 [1]: 0.615 µg/mL
pseudovirus neutralization IC50 [2]: 0.604 µg/mL
pseudovirus neutralization IC50 [3]: 0.924 µg/mL
pseudovirus neutralization IC50 [4]: > 10 µg/mL
pseudovirus neutralization IC50 [5]: > 10 µg/mL
pseudovirus neutralization IC50 [6]: 1.1 µg/mL
pseudovirus neutralization IC50 [7]: 0.654 µg/mL

B3: XGv-311 (protein)
chain 1: EVQLVESGGGLVQPGGSLRLSCGASGFSFSNYDIHWVRQATGKGLEWVSGVGTYGDTYYSDSVKGRFTISRENAKNSLYLQMNSLRVGDTAVYFCARGSVDPTTNWYFDLWGRGTLVTVSS
chain 2: DIQMTQSPSSLSASVGDRVTITCRASQGIRNFLAWYQQKPGKAPKLLLSAASRLESGVPSRFSGSGSGTDYTLTISSLQPEDFATYYCQQYYSSPPITFAQGTRLEIK
pseudovirus neutralization IC50 [1]: > 10 µg/mL
pseudovirus neutralization IC50 [2]: > 10 µg/mL
pseudovirus neutralization IC50 [3]: > 10 µg/mL
pseudovirus neutralization IC50 [4]: > 10 µg/mL
pseudovirus neutralization IC50 [5]: > 10 µg/mL
pseudovirus neutralization IC50 [6]: > 10 µg/mL
pseudovirus neutralization IC50 [7]: > 10 µg/mL

B4: XGv-360 (protein)
chain 1: QLQLQESGPRLVRPSETLSLTCIVSGDSISSSTYYWGWIRQPPGKGLEWIGSILRNGTNHCNASLRSRLTISVDTSQNQFSLKLSSVTAADTATYYCTRDSDASGWSGELYYYYGMDVWGQGTTVTVSS
chain 2: DIVMTQSPLFLPVTPGEPASISCRSSQSLLHFNGYNYLDWYLQKPGQSPQLLIYLGSNRASGVPDRFSGGGSGTDFTLKISRVEAEDVGVYYCMQALQTPRTFGQGTKVDIK
pseudovirus neutralization IC50 [1]: 2.5 µg/mL
pseudovirus neutralization IC50 [2]: > 10 µg/mL
pseudovirus neutralization IC50 [3]: > 10 µg/mL
pseudovirus neutralization IC50 [4]: > 10 µg/mL
pseudovirus neutralization IC50 [5]: > 10 µg/mL
pseudovirus neutralization IC50 [6]: > 10 µg/mL
pseudovirus neutralization IC50 [7]: 0.00635 µg/mL

B5: XGv-380 (protein)
chain 1: QVQLVQSGAEVKKPGASVKVSCKASGYTFTSYGISWVRQAPGQGLEWMGWINTYNGDTNYAQNLQARVTMTTDTSTSTAYMELRSLRSDDTAVYFCARVLGYYQDSSGYCFDYWGQGTLVTVSS
chain 2: EIVMTQSPATLSVSPGERATLSCRASQSVSSNFLAWYQQKPGQAPKLLIYGASTRATGIPARFSGSGSGTEFTLTISSLQSEDFGVYFCQQYDNWPPEWTFGQGTTVEIK
pseudovirus neutralization IC50 [1]: 0.819 µg/mL
pseudovirus neutralization IC50 [2]: 0.781 µg/mL
pseudovirus neutralization IC50 [3]: 1.01 µg/mL
pseudovirus neutralization IC50 [4]: 0.972 µg/mL
pseudovirus neutralization IC50 [5]: > 10 µg/mL
pseudovirus neutralization IC50 [6]: > 10 µg/mL
pseudovirus neutralization IC50 [7]: 0.628 µg/mL

B6: XGv-301 (protein)
chain 1: EVQLVESGGGLIQPGGSLRLSCAASGITVSSNYMRWVRQAPGKGLEWVSLLYSGGTAFYADSVKGRFTISRDNSKNTLFLQMNSLRDEDTAVYYCARDLVVYGMDVWGQGTTVTVSS
chain 2: DIQLTQSPSSLSASVGDRVTITCRASQGISSYLAWYQQKPGKAPKLLIYGASTLQSGVPSRFSGSGSGTDFTLTISSLQPEDFAIYYCQQLNSDFLTFGGGTKVEIK
pseudovirus neutralization IC50 [1]: 0.0276 µg/mL
pseudovirus neutralization IC50 [2]: 0.0269 µg/mL
pseudovirus neutralization IC50 [3]: 0.0228 µg/mL
pseudovirus neutralization IC50 [4]: 0.022 µg/mL
pseudovirus neutralization IC50 [5]: > 10 µg/mL
pseudovirus neutralization IC50 [6]: > 10 µg/mL
pseudovirus neutralization IC50 [7]: 0.00356 µg/mL

B7: XGv-304 (protein)
chain 1: EVQLVESGGGLIQPGGSLRLSCEASEITVSSNYMRWVRQAPGKGLEWVSLIYAGGSTFYADSVKGRFTISRDNSKNTLYLQMNSLRVEDTAVYYCARDLMVYGMDVWGQGTTVTVSS
chain 2: DIQLTQSPSSLSASVGDRVTITCRASQGISSYLAWYQQKPGKAPNLLIYGASTLQSGVPSRFSGSGSGTDFTLTISSLQPEDFATYYCQHLNSDPLTFGGGTKVEIK
pseudovirus neutralization IC50 [1]: 0.061 µg/mL
pseudovirus neutralization IC50 [2]: 0.0472 µg/mL
pseudovirus neutralization IC50 [3]: 0.421 µg/mL
pseudovirus neutralization IC50 [4]: 0.0478 µg/mL
pseudovirus neutralization IC50 [5]: > 10 µg/mL
pseudovirus neutralization IC50 [6]: > 10 µg/mL
pseudovirus neutralization IC50 [7]: 0.0255 µg/mL

B8: XGv-297 (protein)
chain 1: QVQLVQSGAEVKKPGASVKVSCRTSGYTFTAYYIHWVRQVPGQGLEWMGIINPSGGGASYAQTFQGRVSLTRDTSTRTVYMDLSSLISEDTAVYYCARAEGTHWLGWFDPWGQGTLVTVSS
chain 2: QSVLTQPPSASGTPGQRVTISCSGSSSNIASNSVYWYQQLPGTAPKLLIYRNNQRPSGVPDRFSGSTSGTSASLAISGLRSEDEADYYCAAWDDNLSGSGWVFGGGTKLTVL
pseudovirus neutralization IC50 [1]: 0.0201 µg/mL
pseudovirus neutralization IC50 [2]: 0.0178 µg/mL
pseudovirus neutralization IC50 [3]: 0.0286 µg/mL
pseudovirus neutralization IC50 [4]: 0.0162 µg/mL
pseudovirus neutralization IC50 [5]: 0.463 µg/mL
pseudovirus neutralization IC50 [6]: > 10 µg/mL
pseudovirus neutralization IC50 [7]: 0.001 µg/mL

B9: XGv-290 (protein)
chain 1: QVQLVQSGAEVKKPGASVKVSCKASGYTFKNYHMHWVRQAPGQGLEWMGIINPSGGGSSYAQKFQGRVTMTGDTSTSTVYMELSSLRSEDTAVYYCARAEGSSWLGWFDPWGQGTLVTVSS
chain 2: QSVLTQPPSASGTPGQRVTISCSGSSSNIGSNYVYWYQQLPGTAPKVLIYRNNQRPSGVPDRFSGSKSGTSASLAISGLRSEDEAEYYCAAWDDGLSGSGWLFGGGTKLT
pseudovirus neutralization IC50 [1]: 3.38 µg/mL
pseudovirus neutralization IC50 [2]: 0.0443 µg/mL
pseudovirus neutralization IC50 [3]: 0.236 µg/mL
pseudovirus neutralization IC50 [4]: 0.0255 µg/mL
pseudovirus neutralization IC50 [5]: 0.28 µg/mL
pseudovirus neutralization IC50 [6]: > 10 µg/mL
pseudovirus neutralization IC50 [7]: 0.0237 µg/mL

B10: XGv-418 (protein)
chain 1: EVQLVQSGAEVKKPGESLKISCKGSGYSFGTYWIGWVRQMPGKGLEWMGIIYPGDSDTRYSPSFQGHVTISADKSISTAYLEWSSLKASDSGMYYCASRPPWETYRYWGQGTPVTVSS
chain 2: QSALTQPASVSASPGQSITISCTGTSRDIGSYNLLSWYQQLPGKAPKLIIYEGSKRPSGVSNRFSGSNSGNTASLTISGLQADDEADYYCCSYAGSDTFPGVFGGGTKL
pseudovirus neutralization IC50 [1]: 2 µg/mL
pseudovirus neutralization IC50 [2]: 0.713 µg/mL
pseudovirus neutralization IC50 [3]: 0.711 µg/mL
pseudovirus neutralization IC50 [4]: 0.651 µg/mL
pseudovirus neutralization IC50 [5]: 1.05 µg/mL
pseudovirus neutralization IC50 [6]: 2.12 µg/mL
pseudovirus neutralization IC50 [7]: 1.13 µg/mL

B11: XGv-409 (protein)
chain 1: QMQLVQSGPEVKKPGTSVKVSCKASGFTFSDSAIQWVRQARGQRLEWIGWMVVGSGSTNYAQKFQERATMTRDMSTRTAYMELSSLRSEDTAVYYCAAPFCSGGTCSDGFDIWGQGTMVTVSS
chain 2: EIVLTQSPGTLSLSPGERATLSCRASQSISINYFGWYQQRPGQPPRLLIYGASRRATGIPDRFSASGSGTDFALTISRLEPEDFAVYYCQQYGNSPWTFGQGTKVEIK
pseudovirus neutralization IC50 [1]: 1.5 µg/mL
pseudovirus neutralization IC50 [2]: 1.25 µg/mL
pseudovirus neutralization IC50 [3]: 0.0946 µg/mL
pseudovirus neutralization IC50 [4]: > 10 µg/mL
pseudovirus neutralization IC50 [5]: > 10 µg/mL
pseudovirus neutralization IC50 [6]: > 10 µg/mL
pseudovirus neutralization IC50 [7]: 0.0211 µg/mL

B12: XGv-343 (protein)
chain 1: QVQLVQSGAEVKKPGASVKVSCKASGYTFTSYHMHWVRQAPGQGLEWMGIINPSGGSTTYAQKFQGRVTMTRDASTSTVYMELSSLTSEDTAVYYCARAHLVVPAALGDYWGQGTLVTVSS
chain 2: QTVVTQEPSLTVSPGGTVTLTCASSTGAVTSTYFPNWFQQKLGQAPRALIYSTSNKHSWTPARVSGSLLGGKAALTLSGVQPEDEADYYCLLYYGGTWVFGGGTKLTVL
pseudovirus neutralization IC50 [1]: 0.379 µg/mL
pseudovirus neutralization IC50 [2]: 0.107 µg/mL
pseudovirus neutralization IC50 [3]: 0.585 µg/mL
pseudovirus neutralization IC50 [4]: > 10 µg/mL
pseudovirus neutralization IC50 [5]: > 10 µg/mL
pseudovirus neutralization IC50 [6]: > 10 µg/mL
pseudovirus neutralization IC50 [7]: 0.0113 µg/mL
